One assay has as its system Candida albicans. The assay is described as follows: Antifungal activity against Candida albicans NCPF3153 by colorimetric broth microdilution method. The assay is classed as functional.
The next assay deals with Cryptococcus neoformans. The assay is described as follows: Antifungal activity against flucytosine-resistant, Cryptococcus neoformans ATCC 90113 by colorimetric broth microdilution method. The format is functional. A general note: Dilution methods test growth across graded concentrations, often in twofold steps.

Values after ≈ are worked out from the molar mass of the structure shown.

In general, MIC refers to the lowest concentration that inhibits growth of the organism. A higher MIC goes with a less susceptible organism. With `CC(=O)O[C@@H]1C[C@H]2O[C@@H]3C=C(C=O)CC[C@]3(C)[C@]1(C)[C@]21CO1`, the figures for the MIC in the assay on Candida albicans and in the assay on Cryptococcus neoformans were 2 µg/mL (≈ 6.53 µM) and 4 µg/mL (≈ 13.1 µM), respectively.
